Measured values from several laboratories, pooled; numbers as filed in NIAID ChemDB.

All rows: tests in culture; organism: HIV-1; read-out: fold resistance

Fold resistance has wild type as its base. Lines come from different laboratories, so protocols vary. An empty or dashed field is not shown.

| smiles | strain or isolate | cell line | mutations | read by | value |
|---|---|---|---|---|---|
| Nc1nc(=O)n([C@@H]2CS[C@H](CO)O2)cc1F | RTMC (RT D67N K70R T215F K219Q) | HT4 + HT4 LacZ-1 | RT-D67N K70R T215F K219Q | plaque count | 2.67 |
| Cc1cc(Cl)cc(S(=O)(=O)c2cccc(N)c2C#N)c1 |  | HeLa + HELA CD4+ | RT-K103N V108I | β-galactosidase | 3670 |
| Cc1ccnc2c1NC(=O)c1cccnc1N2C1CC1 | NL4-3 (RT L74V) | CEM + CEM-SS | RT-L74V | cytopathic effect / XTT | 1 |
| CCN(c1nc(F)ccc1NC(C)(C)C)C1CCN(C(=O)c2cc3cc(NC(=O)N4CCN(C)CC4)ccc3[nH]2)CC1 | IIIB | MT-2 | D437N | p24 / ELISA | 1.5 |
| O=S(=O)(c1ccccc1)c1ccccc1 | Dihydrocostatolide-resistant (RT-L100I) | CEM + CEM-SS | RT-L100I | XTT | 14.4 |
| Nc1nc2c(ncn2[C@H]2CO[C@@H](CO)O2)c(=O)[nH]1 | RT-103N 181C |  | RT-K103N Y181C |  | 0.15 |
| Cc1ccnc2c1NC(=O)c1cccnc1N2C1CC1 | Q-1 (RT T139K Y181C Y188D/Y) | CEM | RT-T139K Y181C Y188D/Y | cytopathic effect | ≥625 |
| CN[C@H]1CO[C@@H]2OCC[C@H](OC(=O)N[C@@H](Cc3cccc(OC)c3)[C@H](O)CN(CC(C)C)S(=O)(=O)c3ccc4nc(NC(C)C)sc4c3)[C@@H]21 | NL4-3 | MT-4 | L10F M46I I54V V82A | p24 / luminescence | 1.2 |
| CCc1c(Sc2ccccn2)n(COCc2ccccc2)c(=O)[nH]c1=O | IIIB | CEM + CEM-SS | RT-P236L | cytopathic effect / XTT | 37 |
| O=c1[nH]cnc2c1ncn2[C@H]1CC[C@@H](CO)O1 | RTMC(181 184) (RT-D67N K70R Y181C M184V 215F 219Q) | HT4 + HT4 LacZ-1 | RT-D67N K70R Y181C M184V T215F K219Q | plaque count | 1.62 |
| Cc1ccnc2c1NC(=O)c1cccnc1N2C1CC1 | NL4-3 | MAGI (CCR5) + MAGI | RT-K103N | β-galactosidase | 70.5 |
| Cc1ccnc2c1NC(=O)c1cccnc1N2C1CC1 | NL4-3 | CEM + CEM-SS | RT-V108I | XTT | 3 |
| CCCN(C)C(=O)Oc1nsnc1-c1c(Cl)ccc(N)c1Cl | IIIB | MAGI | RT-E138K | MTT | 2.47 |
| CCOP(=O)(COc1ccc(C[C@H](NC(=O)O[C@H]2CO[C@H]3OCC[C@H]32)[C@H](O)CN(CC(C)C)S(=O)(=O)c2ccc(OC)cc2)cc1)OCC | IIIB | MT-2 | 8374-P62 GS-8374-resistant | ATP | 14.1 |
| CC[C@H]1C(=O)Nc2ccc(F)cc2N1C(=O)OC(C)C | A-0 (RT-L100I) | CEM | RT-L100I | cytopathic effect | 1 |
| CN[C@H]1CO[C@@H]2OCC[C@H](OC(=O)N[C@@H](Cc3ccccc3)[C@H](O)CN(CC(C)C)S(=O)(=O)c3ccc4nc(NC5CC5)sc4c3)[C@@H]21 | NL4-3 | MT-4 | L10F K20T D30N K45I A71V V77I | p24 / luminescence | 0.6 |
| CC(C)Nc1cccnc1N1CCN(C(=O)c2cc3cc(NS(C)(=O)=O)ccc3[nH]2)CC1 | J-2 (RT-Y181C) | CEM | RT-Y181C | cytopathic effect | 3 |
| C/C=C/CSc1cc(NC(=S)c2ccsc2C)ccc1Cl | E BPTU-resistant (RT Y181C) | CEM + CEM-SS | RT-Y181C | cytopathic effect / XTT | >10 |
| O=c1[nH]cnc2c1ncn2[C@H]1CC[C@@H](CO)O1 | JF14 (RT D67N T69D T215Y) | HELA-CD4+ | RT-D67N T69D T215Y | plaque count | 1 |
| CCN[C@H]1CO[C@@H]2OCC[C@H](OC(=O)N[C@@H](Cc3ccccc3)[C@H](O)CN(CC(C)C)S(=O)(=O)c3ccc4nc(NC5CC5)sc4c3)[C@@H]21 | NL4-3 | MT-4 | L23I E34Q K43I M46I I50L G51A L63P A71V V82A T91A | p24 / luminescence | 0.3 |
| CCCc1cc(=O)oc2c3c(c4c(c12)OC(C)(C)C=C4)O[C@H](C)[C@@H](C)[C@@H]3O | IIIB HEPT-resistant (RT P236L) | CEM + CEM-SS | RT-P236L | cytopathic effect / XTT | 2.4 |
| Cc1cc(S(N)(=O)=O)ccc1NC(=O)COc1ccc(Cl)cc1C(=O)c1cc(Cl)cc(C#N)c1 | NNRTI-resistant (RT P236L) | MAGI | RT-P236L | β-galactosidase | 2.1 |
| Cc1cn([C@H]2C=C[C@@H](CO)O2)c(=O)[nH]c1=O | RTMC (RT-V 75A) | CD4+HELA + HeLa | RT-V75A | plaque count | 3.11 |
| Cc1cn([C@H]2C[C@H](N=[N+]=[N-])[C@@H](CO)O2)c(=O)[nH]c1=O | Recombinant | HeLa | RT-M184V | luciferase | 0.5 |
| COc1ccc(S(=O)(=O)N(CC(C)C)C[C@@H](O)[C@H](Cc2ccccc2)NC(=O)O[C@H]2CCO[C@H]3OC[C@H](O)[C@H]32)cc1 | NL4-3 | MT-4 | L10I I54V K20R L24I V32I L33F M36I M46I I54M L63P K70Q V82I I84V L89M | p24 / luminescence | 166 |
| Nc1ccn([C@H]2C=C[C@@H](CO)O2)c(=O)n1 | HXB2 | CD4+HELA + HeLa | RT-T215Y | plaque count | 1.33 |
| O=c1[nH]cnc2c1ncn2[C@H]1CC[C@@H](CO)O1 | RT-69N 70R 151M 215F |  | RT-T69N K70R Q151M T215F |  | 3 |
| Cc1cc(O)cc(S(=O)(=O)c2cccc(N)c2C#N)c1 |  | HeLa + HELA CD4+ | RT-V108I Y181C | β-galactosidase | 571 |
| Cn1c2ccccc2c2c1cc(C#N)c(=O)n2-c1ccc([N+](=O)[O-])cc1 | NNRTI-resistant | HeLa | RT-Y188L | luciferase | 0.3 |
| Cc1c(Sc2ccccc2)n(COCCO)c(=O)[nH]c1=O | IIIB | CEM + CEM-SS | RT-K103N Y181C | cytopathic effect / XTT | >18 |
| Nc1nc(NC2CC2)c2ncn([C@H]3C=C[C@@H](CO)C3)c2n1 | Recombinant | HeLa | RT-A62T V118I M184V | luciferase | 3 |
| CCN[C@H]1CO[C@@H]2OCC[C@H](OC(=O)N[C@@H](Cc3cccc(OC)c3)[C@H](O)CN(CC(C)C)S(=O)(=O)c3ccc4nc(NC(C)C)sc4c3)[C@@H]21 | NL4-3 | MT-4 | L10I I15V K20R L24I V32I M36I M46I L63P K70Q V82A I84V L89M | p24 / luminescence | 4.6 |
| Cc1cn([C@H]2C[C@H](N=[N+]=[N-])[C@@H](CO)O2)c(=O)[nH]c1=O | IIIB | CEM + CEM-SS | RT-L100I | cytopathic effect / XTT | 0.8 |
| Cc1cc(Br)cc(S(=O)(=O)c2cccc(N)c2C#N)c1 |  | HeLa + HELA CD4+ | RT-V108I | β-galactosidase | 1.55 |
| Cc1cn([C@H]2C[C@H](N=[N+]=[N-])[C@@H](CO)O2)c(=O)[nH]c1=O | IIIB | MT-2 | R41K | p24 / ELISA | 0.5 |
| COc1cc(C(F)(F)F)cc(S(=O)(=O)c2cccc(N)c2C#N)c1 |  | HeLa + HELA CD4+ | RT-V106A | β-galactosidase | 0.207 |
| CCCc1cc(=O)oc2c3c(c4c(c12)OC(C)(C)C=C4)O[C@@H](C)[C@H](C)[C@@H]3O | UC040-R (RT-Y181C) | CEM + CEM-SS | RT-Y181C | cytopathic effect / XTT | <0.16 |
| Cc1ccnc2c1NC(=O)c1cccnc1N2C1CC1 | HXB2 | HT4 + HT4 LacZ-1 | RT-L74V Y181C | plaque count | 66.7 |
| O=c1[nH]cnc2c1ncn2[C@H]1CC[C@@H](CO)O1 | HXB2 | MAGI (CCR5) + MAGI | RT-A62V V75I F77L F116Y Q151M | β-galactosidase | 14 |
| CC(C)=CCN1c2cc(Cl)cc3[nH]c(=S)n(c23)C[C@@H]1C |  | MT-4 | RT-K70R Y181C |  | 12.5 |
| Cc1cn([C@H]2C[C@H](N=[N+]=[N-])[C@@H](CO)O2)c(=O)[nH]c1=O | Pyridinone-resistant (RT K103N Y181C) | CEM + CEM-SS | RT-K103N Y181C | XTT | 0.2 |
| Cc1occc1C(=S)Nc1ccc(Cl)c(/C=N/OC(C)(C)C)c1 | UC781-R (RT-Y181C) | CEM + CEM-SS | RT-Y181C | cytopathic effect / XTT | 4.5 |

A second listing of 5 rows from above:

{"smiles": "CCN[C@H]1CO[C@@H]2OCC[C@H](OC(=O)N[C@@H](Cc3cccc(OC)c3)[C@H](O)CN(CC(C)C)S(=O)(=O)c3ccc4nc(NC(C)C)sc4c3)[C@@H]21", "strain or isolate": "NL4-3", "cell line": "MT-4", "mutations": "L10I I15V K20R L24I V32I M36I M46I L63P K70Q V82A I84V L89M", "read by": "p24 / luminescence", "value": "4.6"}
{"smiles": "CCN(c1nc(F)ccc1NC(C)(C)C)C1CCN(C(=O)c2cc3cc(NC(=O)N4CCN(C)CC4)ccc3[nH]2)CC1", "strain or isolate": "IIIB", "cell line": "MT-2", "mutations": "D437N", "read by": "p24 / ELISA", "value": "1.5"}
{"smiles": "Cc1cc(S(N)(=O)=O)ccc1NC(=O)COc1ccc(Cl)cc1C(=O)c1cc(Cl)cc(C#N)c1", "strain or isolate": "NNRTI-resistant (RT P236L)", "cell line": "MAGI", "mutations": "RT-P236L", "read by": "β-galactosidase", "value": "2.1"}
{"smiles": "Nc1nc(=O)n([C@@H]2CS[C@H](CO)O2)cc1F", "strain or isolate": "RTMC (RT D67N K70R T215F K219Q)", "cell line": "HT4 + HT4 LacZ-1", "mutations": "RT-D67N K70R T215F K219Q", "read by": "plaque count", "value": "2.67"}
{"smiles": "Cc1cn([C@H]2C=C[C@@H](CO)O2)c(=O)[nH]c1=O", "strain or isolate": "RTMC (RT-V 75A)", "cell line": "CD4+HELA + HeLa", "mutations": "RT-V75A", "read by": "plaque count", "value": "3.11"}